Results of unrelated studies side by side (data: NIAID ChemDB).

All rows: host cell toxicity; read-out: CC50

CCn: concentration that lowers growth or viability of the cells by n%. Blank or dashed fields: not listed here. Conditions beyond the fields shown may differ between rows.

smiles | cells | read by | value
O=c1c2cc(O)c(O)cc2oc2cc(O)cc(O)c12 | HT-29 | sulforhodamine / absorbance | >50 µM
CCCCCCCCC(=O)O/N=C1\c2ccccc2-c2c1c(-n1ccnc1)nc1ccc(Br)cc21 | U-937 | MTT | >100 µg/mL
Nc1ccnc2c1ncn2[C@@H]1O[C@H](CO)C[C@H]1O | Sheep chondrocytes G81092 |  | >400 µM
Nc1nc(N)c2ncn(C[C@@H](CO)OCP(=O)(O)O)c2n1 | CBMC | MTT | 27 µM
OC[C@@H]1CC[C@H](n2cnc3c(NC4CC4)ncnc32)O1 | Sheep chondrocytes G81092 |  | 280 µM
CC(=O)c1c(O)c(C)c(O)c2c1OC1=CC(=O)/C(=C(/C)N[C@@H](CC(N)=O)C(=O)O)C(=O)[C@@]12C | L6 | resazurin | 34.62 µM
COc1ccc(-c2cc(OC)c(O)c(OC)c2O)cc1 | 1A2 | XTT / absorbance | 390.9 µM
CC1=CCC(C(C)C2=CC[C@]3(C)C(=C2C)C[C@]2(O)C=C4C=CC(=O)OC(C)(C)C4[C@H](O)CC23)OC1=O | HL-60 | MTT | 22.65 µM
O=c1c2cc(O)ccc2oc2cc(O)cc(O)c12 | ASK (Atlantic salmon kidney) | sulforhodamine / absorbance | >50 µM
C=C[C@]1(C)C=C2C(=O)c3c(NC=O)cccc3C(C)(C)[C@H]2C[C@H]1O | NCI-H460 |  | >100 µM
CC(C)(C)OC(=O)NC(Cc1cccc(F)c1)C(=O)O/N=C1\c2ccccc2-c2c1c(N1CCN(c3ccccn3)CC1)nc1ccc(Br)cc21 | U-937 | MTT | >20 µg/mL
CC(=O)c1c(O)c(C)c(O)c2c1OC1=CC(=O)/C(=C(/C)NCc3ccncc3)C(=O)[C@@]12C | L6 | resazurin | 23.94 µM
C=C(C)[C@@H]1CCC2[C@]3(CC[C@]4(C)[C@@H]([C@H](C)CC/C=C(/C)C(=O)O)CC[C@@]24C)C[C@]13CCC(=O)O | HL-60 | MTT | 2.53 µM
CC1Oc2cc(O)c3c(=O)c4ccc(O)c(O)c4oc3c2C1(C)C | P-388 | sulforhodamine / absorbance | 4.66 µM
OC[C@H]1O[C@@H](n2cnc3c(NC4CC4)nc(Cl)nc32)[C@H](O)[C@@H]1O | Sheep chondrocytes G81092 |  | 225 µM
CC(OCP(=O)(O)O)[C@@H](O)n1cnc(=N)c2[nH]cnc21 | HB611 |  | >100 µM
OC[C@@H]1CC[C@H](n2cnc3c(NC4CCCCCC4)ncnc32)O1 | Sheep chondrocytes G81092 |  | 308 µM
Cc1nc(N)c2[nH]c(=S)n(CC(CO)OCP(=O)(O)O)c2n1 | HB611 |  | >100 µM
CN1CCc2cc3c(cc2[C@H]1[C@H]1OC(=O)c2c1ccc1c2OCO1)OCO3 | Vero cells |  | >10 µg/mL
CCCCCCCCCC(=O)O/N=C1\c2ccccc2-c2c1c(-n1ccnc1)nc1ccc(Br)cc21 | U-937 | MTT | >10 µg/mL
COc1ccc(-c2cc(=O)c3c(OC)cc(OC)c([C@H]4C(=O)c5c(OC)cc(OC)cc5O[C@@H]4c4ccc(OC)cc4)c3o2)cc1 | BSC-1 | visual reading | <60 µg/mL
CC(=O)c1c(O)c(C)c(O)c2c1OC1=CC(=O)/C(=C(/C)NCCC3=CNC4C=CC=CC34)C(=O)[C@@]12C | L6 | resazurin | 157.1 µM
CN(C)C(=S)N/N=C(\c1ccccc1)c1ccccn1 | CEM-GFP | propidium iodide | 2 µM
Nc1nccc2c1ncn2CCOCP(=O)(O)O | HB611 |  | 87 µM
OC[C@@H]1C[C@@H](O)[C@H](n2cnc3c(NC4CCCCC4)nccc32)O1 | Sheep chondrocytes G81092 |  | >400 µM
CCNC(=S)N/N=C(\c1cccc([N+](=O)[O-])c1)c1ccccn1 | CEM-GFP | propidium iodide | >10 µM
O=c1[nH]cnc2c1ncn2[C@H]1CC[C@@H](CO)O1 | BFU-E |  | 500 µM
Nc1ccn(CCOCCP(=O)(O)O)c(=O)n1 | HB611 |  | >400 µM
O=C(O)P(=O)(O)O | CBMC | MTT | 893 µM
Nc1nc(Cl)cc2c1ncn2[C@@H]1O[C@H](CO)C[C@H]1O | Sheep chondrocytes G81092 |  | >400 µM
Nc1nc(N)c2ncn(CCOCP(=O)(O)O)c2n1 | CBMC | MTT | 34 µM
Nc1ncnc2c1ncn2[C@H]1CC[C@@H](CO)O1 | CFU-GM |  | 100 µM
O=c1cc(-c2ccc(O)c(-c3c(O)cc(O)c4c(=O)cc(-c5ccc(O)cc5)oc34)c2)oc2cc(O)cc(O)c12 | BSC-1 | visual reading | <10 µg/mL
O=c1[nH]c(=O)n([C@@H]2O[C@H](CO)[C@@H](O)[C@@H]2O)cc1/C=C/Br | CBMC | MTT | 148 µM
CC(C)=CC[C@H]1C[C@@]2(C[C@H]3CCC(C)(C)C=C3C)C(=O)[C@](C(=O)c3ccccc3)(C(=O)C3=C2OC(C)(C)CC3)C1(C)C | KB | sulforhodamine / absorbance | >50 µM
Nc1ncnc2c1ncn2CCOCCP(=O)(O)O | HB611 |  | >400 µM
O=C1c2c(O)cc(O)cc2O[C@H](c2ccc(O)cc2)[C@H]1c1c(O)cc(O)c2c(=O)cc(-c3ccc(O)c(O)c3)oc12 | HT-29 | sulforhodamine / absorbance | >50 µM
CC(NC(=O)OC(C)(C)C)C(=O)O/N=C1\c2ccccc2-c2c1c(N1CCN(c3ccccn3)CC1)nc1ccc(Br)cc21 | U-937 | MTT | >10 µg/mL
CC(=O)c1c(O)c(C)c(O)c2c1OC1=CC(=O)/C(=C(/C)NCCCCOC3O[C@@H]4OCC5(C)CC6[C@H](C)CC[C@@H]([C@H]3C)[C@]64OO5)C(=O)[C@@]12C | L6 | resazurin | 0.015 µM
CN1CCc2cc3c(cc2C(=O)Cc2ccc4c(c2C1)OCO4)OCO3 | Vero cells |  | >3.5 µg/mL
O=c1[nH]c(=O)n([C@H]2C[C@H](O)[C@@H](CO)O2)cc1I | HSB-2 | MTT | 288 µM
O=C(CNC(=O)OCC1c2ccccc2-c2ccccc21)O/N=C1\c2ccccc2-c2c1c(N1CCN(c3ccccn3)CC1)nc1ccc(Br)cc21 | U-937 | MTT | >10 µg/mL
O=c1[nH]cnc2c1ncn2CCOCCP(=O)(O)O | HB611 |  | >400 µM
O=C1C[C@@H](c2ccc(O)cc2)Oc2cc(O)c(-c3c(O)cc4c(c3O)C(=O)C[C@@H](c3ccc(O)cc3)O4)c(O)c21 | MDCK | neutral red | 7 µg/mL
C=CCNC(=S)N/N=C(\c1cccc([N+](=O)[O-])c1)c1ccccn1 | CEM-GFP | propidium iodide | >10 µM
Nc1ncnc2c1ncn2C[C@@H](CO)OCP(=O)(O)O | CBMC | MTT | 21 µM
OC[C@H]1O[C@@H](n2cnc3c(NC4CC4)nc(Cl)nc32)C[C@@H]1O | Sheep chondrocytes G81092 |  | 234 µM
CC[C@@]1(O)C(=O)OCc2c1cc1n(c2=O)Cc2cc3ccccc3nc2-1 | SF268 |  | 0.07 µM
CN1CCc2cc3c(cc2[C@@H]1[C@@H]1OC(=O)c2c1ccc1c2OCO1)OCO3 | Vero cells |  | >20 µg/mL
CO[C@H]1O[C@@H](n2ccc(=O)[nH]c2=O)C[C@@H]1N=[N+]=[N-] | CFU-GM |  | 10 µM
C=C1C2C[C@]3(O)C=C4C=CC(=O)OC(C)(C)C4[C@H](O)CC3[C@]2(C)CCC1(O)C(C)C1CC=C(C)C(=O)O1 | BEL-7402 | MTT | 25.36 µM
Nc1nc(=O)n(CCOCP(=O)(O)O)cc1-c1ccccc1 | HB611 |  | >200 µM
Nc1ncnc2c1ncn2C[C@H]1COP(=O)(O)CO1 | CBMC | MTT | 66 µM
CC(C)C(NC(=O)OCC1c2ccccc2-c2ccccc21)C(=O)O/N=C1\c2ccccc2-c2c1c(N1CCN(c3ccccn3)CC1)nc1ccc(Br)cc21 | U-937 | MTT | >20 µg/mL
CN(C)C(=S)NN=C(c1ccccn1)c1ccccn1 | CEM-GFP | propidium iodide | >10 µM
CC(OCn1cnc2cnc(N)nc21)OCP(=O)(O)O | HB611 |  | 92 µM
Nc1cc(Cl)nc2c1ncn2[C@H]1C[C@H](O)[C@@H](CO)O1 | Sheep chondrocytes G81092 | MTT | >400 µM
Nc1ccn([C@H]2C[C@H](F)[C@@H](CO)O2)c(=O)n1 | CFU-GM |  | 100 µM

The last 5 rows once more:

{"smiles": "CC(C)C(NC(=O)OCC1c2ccccc2-c2ccccc21)C(=O)O/N=C1\\c2ccccc2-c2c1c(N1CCN(c3ccccn3)CC1)nc1ccc(Br)cc21", "cells": "U-937", "read by": "MTT", "value": ">20 µg/mL"}
{"smiles": "CN(C)C(=S)NN=C(c1ccccn1)c1ccccn1", "cells": "CEM-GFP", "read by": "propidium iodide", "value": ">10 µM"}
{"smiles": "CC(OCn1cnc2cnc(N)nc21)OCP(=O)(O)O", "cells": "HB611", "value": "92 µM"}
{"smiles": "Nc1cc(Cl)nc2c1ncn2[C@H]1C[C@H](O)[C@@H](CO)O1", "cells": "Sheep chondrocytes G81092", "read by": "MTT", "value": ">400 µM"}
{"smiles": "Nc1ccn([C@H]2C[C@H](F)[C@@H](CO)O2)c(=O)n1", "cells": "CFU-GM", "value": "100 µM"}